Compound potency records, mixed from different reports. Data source: NIAID ChemDB in PubChem.

Common to all: cytotoxicity tests; cell line: VERO; read-out: CC50

Conditions beyond the fields shown may differ between rows. CCn: concentration that lowers growth or viability of the cells by n%. Blank or dashed fields: not listed here.

smiles | method | result
CCn1cc(C(=O)O)c(=O)c2ccc(-c3ccncc3)cc21 |  | >200 µg/mL
CC1(C)CCCN1CCCN1c2ccccc2Sc2ccc(Cl)cc21.Cl |  | 4.4 µg/mL
NC(=O)c1cn(-c2ccc(F)cc2)c2cc(-c3ccncc3)ccc2c1=O |  | >6.25 µg/mL
O=C(Cc1cccc(C(F)(F)F)c1)NC1N=C(c2ccccc2)c2ccccc2NC1=O |  | 1.5 µM
c1ccc2c(c1)ccc1c2nc2c3ccccc3[nH]n12 |  | 3.2 µg/mL
CC(=O)c1csc(Nc2ccccn2)n1 | luminescence | >100 µM
NC(=O)c1cn(-c2ccc(F)cc2F)c2cc(-c3ccncc3)ccc2c1=O |  | >3.1 µg/mL
CCCCCCCC(=O)N1[C@H]2[C@@H]1CN1C3=C(C(=O)C(N)=C(C)C3=O)[C@@H](COC(N)=O)[C@@]21OC |  | 0.579 µg/mL
O=C1Nc2ccccc2C(c2ccccc2)=NC1NCc1ccccc1C(F)(F)F |  | 30 µM
CCn1cc(C2=NCCN2)c(=O)c2ccc(-c3ccncc3)cc21 |  | >100 µg/mL
O=C(Cc1ccccc1C(F)(F)F)NC1N=C(c2ccccc2)c2ccccc2NC1=O |  | 2 µM
CC(=O)Nc1nc(-c2ccccn2)cs1 | luminescence | >100 µM
OC(c1cc(-c2ccccc2)nc2c(Cl)cc(Cl)cc12)C1CCCCN1 |  | 1.42 µg/mL
Sc1ccccc1-c1csc(Nc2ccccn2)n1 | luminescence | 48 µM
CCn1cc(C(=O)N(C)O)c(=O)c2ccc(-c3ccncc3)cc21 |  | >50 µg/mL
c1ccc(-c2csc(NC3CCCCC3)n2)nc1 | luminescence | 6 µM
O=S(=O)(Nc1nccs1)c1ccc(N=Cc2cn(Cc3ccccc3)c3ccccc23)cc1 |  | >10 µg/mL
NC(=O)c1cn(-c2cccc(F)c2)c2cc(-c3ccncc3)ccc2c1=O |  | >25 µg/mL
CC1CCCN(C(=S)S)C1.CC1CCCNC1 |  | 8.9 µg/mL
Oc1ccccc1-c1csc(Nc2ccccc2C(F)(F)F)n1 | luminescence | 20 µM
CN(C)CCc1c2c(nc3ccccc13)C(=O)c1cccnc1C2=O |  | 0.68 µg/mL
O=C1Nc2ccccc2C(c2ccccc2)=NC1NCc1ccc([N+](=O)[O-])cc1 |  | 10 µM

3 of the rows above, restated:

smiles,method,result
O=C1Nc2ccccc2C(c2ccccc2)=NC1NCc1ccccc1C(F)(F)F,,30 µM
CCn1cc(C(=O)N(C)O)c(=O)c2ccc(-c3ccncc3)cc21,,>50 µg/mL
CC1CCCN(C(=S)S)C1.CC1CCCNC1,,8.9 µg/mL